# In patent US11542288B2, “Antiviral compounds” (priority 2020, dated 2023):
# How the values were obtained:
# [1] = test system: SP cells (chronically infected with HTLV-1); assay: SP cell Gag processing (HTLV-1 maturation) immunoblot; type: cell-based; details: SP cell lysates and supernatants, 50 μM or 100 μM
# HTLV-1 protease = HTLV-1 protease (Human T-cell leukemia virus type I, UniProt Q82134, L40I); details: 1:1 ratio inhibitor to protease (1 μM), 60 min, 37° C.
smiles,measurement,setting,value
CCC(CC)CN(C[C@@H](O)[C@H](Cc1ccccc1)NC(=O)O[C@H]1CO[C@H]2OCC[C@H]21)S(=O)(=O)c1ccc(N)cc1,amount of full-length (FL) Gag and larger size cleavage intermediates (CI),[1],increased
same,inhibition of Gag cleavage and VLP maturation,HTLV-1 protease,effectively inhibited Gag cleavage and VLP maturation
